Anti-infective test results gathered from many reports (values: NIAID ChemDB through PubChem).

All rows: growth or infection tests; organism: HIV-1; measure: inhibition

Percent inhibition refers to the dose given; in toxicity tests it is the harm to the cells. Rows are shuffled and stem from different studies. a–b is a range or a potency band. An empty or dashed field is not shown.

Cc1ccc(-c2ccc3c(c2)C=C(C(=O)Nc2ccc(C[N+](C)(C)C4CCOCC4)cc2)CCC3)cc1 ; read by: p24 ; strain: COT2 CLADE C ; cells: PBMC ; dose: 1 µM ; value: 98.5%
CC1(C)[C@@H](O[C@H]2O[C@H](C(=O)O)[C@@H](O)[C@H](O)[C@H]2O[C@@H]2O[C@H](C(=O)O)[C@@H](O)[C@H](O)[C@H]2O)CC[C@]2(C)[C@H]3C(=O)C=C4[C@@H]5C[C@@](C)(C(=O)O)CC[C@]5(C)CC[C@@]4(C)[C@]3(C)CC[C@@H]12 ; read by: virus yield ; strain: IIIB ; conditions: 6 d ; cells: MOLT-4 ; dose: 1200 µM ; value: 80%
CCOC(=O)C1CN(C(=O)c2ccccc2)CCN1C(=O)C(=O)c1c[nH]c2c(C(=O)OC)cccc12 ; read by: luciferase ; cells: HeLa + HELA CD4+/CCR5 ; dose: 10 µM ; value: 86%
N#Cc1csc(NC(=O)NCCc2ccccc2)n1 ; read by: RT activity ; cells: MT-4 ; dose: 0.1 µg/mL ; value: 99%
O=c1oc2cc(O)c(O)cc2c(O)c1-c1coc2c1c(=O)oc1cc(O)c(O)cc12 ; read by: MTT ; strain: IIIB ; cells: MT-4 ; dose: 0.1 µM ; value: 0%
CCCCCCCCCCCCCCCCOP(=O)(OC[C@H]1OC(O)[C@@H](O)[C@@H](O)[C@@H]1O)OC[C@H]1O[C@@H](n2cc(C)c(=O)[nH]c2=O)C[C@@H]1N=[N+]=[N-] ; read by: RT activity ; strain: LAV-Bru ; conditions: 15 d ; cells: CEM ; dose: 1 µM ; value: 97%
O=C(NCCc1ccccc1)Nc1nc2ccccc2s1 ; read by: RT activity ; cells: MT-4 ; dose: 10 µg/mL ; value: 96%
Cc1cn([C@H]2C[C@H](N=[N+]=[N-])[C@@H](COP(=O)(O)OCCO[C@H]3O[C@H](CO)[C@@H](O)[C@H](O)[C@@H]3O)O2)c(=O)[nH]c1=O ; read by: RT activity ; strain: LAV-Bru ; conditions: 15 d ; cells: CEM ; dose: 25 µM ; value: 98%
O=C(C(=O)N1CCN(C(=O)c2cccc(O)c2)CC1)c1c[nH]c2cccc(F)c12 ; read by: luciferase ; cells: HeLa + HELA CD4+/CCR5 ; dose: 10 µM ; value: >98%
CCOc1ccccc1CCNC(=S)Nc1nccs1 ; read by: cytopathic effect / XTT ; cells: MT-4 ; dose: 10 µg/mL ; value: 100%
O=C(C(=O)N1CCN(C(=O)c2ccccc2)CC1)c1c[nH]c2cc(F)c(F)cc12 ; read by: luciferase ; cells: HeLa + HELA CD4+/CCR5 ; dose: 10 µM ; value: 63%
CCCCCCCCCCCCCCCCOP(=O)(OCCO[C@@H]1O[C@H](CO)[C@@H](O)[C@H](O)[C@@H]1O)OC[C@H]1O[C@@H](n2cc(C)c(=O)[nH]c2=O)C[C@@H]1N=[N+]=[N-] ; read by: RT activity ; strain: LAV-Bru ; conditions: 11 d ; cells: U-937 ; dose: 1 µM ; value: 0%
C[C@H]1[C@H](O)[C@@H](C)/C=C/C=C/C=C/C=C/C=C/C=C/C=C/[C@H](O[C@@H]2O[C@H](C)[C@@H](O)[C@H](N)[C@@H]2O)C[C@@H]2O[C@](O)(C[C@@H](O)C[C@@H](O)CC[C@H](O)[C@@H](O)C[C@@H](O)CC(=O)O[C@H]1C)C[C@H](O)[C@H]2C(=O)O ; read by: p24 / RT activity ; strain: CMU08 CLADE E X4 (SI) ; cells: PBMC ; dose: 2.3 µM ; value: 90%
CN1C(=O)[C@@H](Cc2ccccc2)NC1=S ; read by: RT activity ; cells: MT-4 ; dose: 100 µg/mL ; value: 94%
CC1(C)OC(=O)C2(C(=O)O1)[C@@H](c1ccccc1)CC(=O)C[C@H]2[C@H]1COC(C)(C)O1 ; read by: MTT ; strain: NL4-3 ; cells: SupT1 ; dose: 10 µM ; value: 58%
CC1/C=C/C=C/C=C/C=C/C=C/C=C/C=C/C(OC2OC(C)C(O)C(N)C2O)CC(O)C(C(=O)O)C(O)CC(=O)CC(O)CC(O)CC(O)CC(=O)CCCC(=O)CC(=O)OC1 ; read by: p24 / antigen ; strain: IIIB ; cells: H9 ; dose: 10 µg/mL ; value: 57%
CCC1CN(C(=O)c2ccccc2)CCN1C(=O)C(=O)c1c[nH]c2c(C(=O)OC)cccc12 ; read by: luciferase ; cells: HeLa + HELA CD4+/CCR5 ; dose: 10 µM ; value: >98%
CC(C)(C)c1csc(NC(=O)NCCc2ccccc2)n1 ; read by: cytopathic effect / XTT ; cells: MT-4 ; dose: 100 µg/mL ; value: 0%
N=C1Sc2ccccc2C2=NCCCN12 ; read by: β-galactosidase ; strain: 92RW016 ; cells: PBMC ; dose: 0.54 µM ; value: 90%
O=C(C(=O)N1CCN(C(=O)c2ccccc2)CC1C(=O)O)c1c[nH]c2cccc(F)c12 ; read by: luciferase ; cells: HeLa + HELA CD4+/CCR5 ; dose: 10 µM ; value: 74%
Cc1nc(NC(=O)NCCc2ccccc2)sc1C ; read by: RT activity ; cells: MT-4 ; dose: 1 µg/mL ; value: 23%
COc1ccc(OC)c2c(C(=O)C(=O)N3CCN(C(=O)c4ccccc4)CC3)c[nH]c12 ; read by: luciferase ; cells: HeLa + HELA CD4+/CCR5 ; dose: 10 µM ; value: >98%
CCCCN1C(=O)[C@@H](Cc2ccccc2)NC1=S ; read by: cytopathic effect / XTT ; cells: MT-4 ; dose: 10 µg/mL ; value: 20–52%

3 of the rows above, restated:

compound	read by	strain	conditions	cells	dose	value
Cc1ccc(-c2ccc3c(c2)C=C(C(=O)Nc2ccc(C[N+](C)(C)C4CCOCC4)cc2)CCC3)cc1	p24	COT2 CLADE C	-	PBMC	1 µM	98.5%
COc1ccc(OC)c2c(C(=O)C(=O)N3CCN(C(=O)c4ccccc4)CC3)c[nH]c12	luciferase	-	-	HeLa + HELA CD4+/CCR5	10 µM	>98%
Cc1cn([C@H]2C[C@H](N=[N+]=[N-])[C@@H](COP(=O)(O)OCCO[C@H]3O[C@H](CO)[C@@H](O)[C@H](O)[C@@H]3O)O2)c(=O)[nH]c1=O	RT activity	LAV-Bru	15 d	CEM	25 µM	98%